Measured data: PubChem BioAssay AID624099 (ICCB-Longwood, 2012)

- Test: 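Human genes that papillomavirus E2 requires to repress the HPV18 LCR promoter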 (primary screen)
- Cell system: human C33A cervical carcinoma cells (HPV-negative) stably expressing BPV1 E2 and an HPV18 LCR luciferase reporter
- Reagents: siRNA pool against human genes, 40 nM
- Timing: 72 h
- Measurement: 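HPV18 LCR reporter light per well, converted to plate-wise z-scores that exclude control wells, and averaged over triplicate plates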
- Reading the numbers: mean z-score and z-score: higher = stronger reporter signal, weaker E2 silencing
- Hit rule: 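Mean z ≥ 2 together with z ≥ 2 in two or more of the three replicates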
In all, the deposit lists about 21,000 reagents; below is a part drawn at random. In the full data, 497 (2.4%) were called active. 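Higher z means weaker E2 silencing; only reporter increases were scored, and knock-downs that hurt cell survival may mask genuine repressor factors.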 A number with no mark means an inactive call. The numbers tell different reagents against one gene apart.

| mean z-score | z-score, replicate A | z-score, replicate B | z-score, replicate C | gene knocked down | reagent |
| --- | --- | --- | --- | --- | --- |
| -0.79 | -0.71 | -0.77 | -0.87 | HINT1 | 1 |
| 0.19 | 0 | 0.09 | 0.49 | TRO | 1 |
| 0.45 | 0.36 | 0.69 | 0.31 | RAPSN | 1 |
| 1.37 | 1.35 | 1.14 | 1.61 | WNT4 | 1 |
| 0.69 | 0.69 | 0.76 | 0.62 | DXO | 1 |
| -0.2 | 0.13 | -0.31 | -0.43 | IVD | 1 |
| -0.43 | -0.37 | -0.54 | -0.37 | ST8SIA2 | 1 |
| 0.71 | 0.45 | 0.73 | 0.94 | PAICS | 1 |
| -0.55 | -0.49 | -0.34 | -0.81 | JARID2 | 1 |
| -0.03 | -0.08 | -0.09 | 0.08 | KRT3 | 1 |
| -0.09 | -0.08 | -0.11 | -0.08 | GABRP | 1 |
| -0.56 | -0.03 | -0.81 | -0.84 | HSPB7 | 1 |
| 0.46 | 0.86 | 0.2 | 0.32 | LOC388509 (retired record) | 1 |
| -0.33 | -0.01 | -0.69 | -0.29 | SMC5 | 1 |
| 0.28 | 0.31 | 0.16 | 0.37 | ZFP42 | 1 |
| 0.1 | 0.11 | 0.18 | 0.01 | FLG | 1 |
| -0.38 | -0.05 | -0.36 | -0.73 | FLG | 2 |
| 0.36 | 0.67 | 0.07 | 0.34 | DPP7 | 1 |
| 1.04 | 0.97 | 1.18 | 0.97 | KCMF1 | 1 |
| 0.76 | 0.95 | 0.92 | 0.4 | AMPD3 | 1 |
| -1.31 | -1.14 | -1.41 | -1.39 | LINC03103 | 1 |
| -1.48 | -1.32 | -1.94 | -1.2 | OVOS2P | 1 |
| 1.22 | 0.99 | 1.31 | 1.36 | LINC01879 | 1 |
| -0.6 | -0.96 | -0.14 | -0.7 | TMC5 | 1 |
| 0.3 | 0.37 | 0.35 | 0.17 | PTH2 | 1 |
| 0.7 | 0.34 | 1.08 | 0.68 | C19orf25 | 1 |
| 0.29 | 0.68 | 0.19 | 0.02 | ZMYM1 | 1 |
| -0.2 | 0.29 | -0.44 | -0.46 | RHCG | 1 |
| -0.67 | -0.68 | -0.34 | -0.99 | SHMT2 | 1 |
| 1.93 | 1.78 | 2.02 | 2 | IQGAP1 | 1 |
| 0.29 | 0.18 | 0.33 | 0.36 | ZNF486 | 1 |
| 0.02 | 0 | 0.05 | -0.01 | EMG1 | 1 |
| -2.2 | -2.19 | -2.54 | -1.89 | EEF2KMT | 1 |
| 0.3 | 0.25 | 0.45 | 0.19 | UBXN1 | 1 |
| 1.58 | 1.26 | 1.49 | 1.99 | GTF2E2 | 1 |
| 0.07 | -0.36 | 0.34 | 0.22 | LOC388123 (retired record) | 1 |
| 0.64 | 0.42 | 0.86 | – | MNS1 | 1 |
| -1.44 | -1.52 | -1.63 | -1.16 | NLRP7 | 1 |
| -0.66 | -0.59 | -0.63 | -0.77 | CFAP300 | 1 |
| 0.46 | 0.38 | 0.43 | 0.57 | APOLTP | 1 |
| -0.21 | -0.25 | -0.1 | -0.28 | PTS | 1 |
| -0.39 | -0.43 | -0.47 | -0.28 | LOC100288884 (retired record) | 1 |
| -1.72 | -1.55 | -2.03 | -1.57 | OR4F3 | 1 |
| 0.61 | 0.67 | 0.52 | 0.65 | LINC02610 | 1 |
| 0.89 | 0.82 | 0.83 | 1.03 | CFAP36 | 1 |
| -0.13 | -0.13 | -0.04 | -0.21 | CFHR1 | 1 |
| 0.59 | 0.5 | 0.83 | 0.43 | ZNF17 | 1 |
| 0.76 | 0.71 | 0.68 | 0.89 | PNKD | 1 |
| -0.17 | -0.1 | 0.26 | -0.65 | WDR20 | 1 |
| -0.61 | -0.69 | -0.5 | -0.66 | DHX30 | 1 |
| 1.25 | 0.73 | 1.43 | 1.58 | RBMXL3 | 1 |
| -1.15 | -1.49 | -0.92 | -1.04 | CHKA | 1 |
| -0.08 | -0.37 | 0.16 | -0.02 | ZNF611 | 1 |
| 0.69 | 0.76 | 0.88 | 0.43 | SHANK2 | 1 |
| 0.14 | 0.12 | 0.03 | 0.27 | LOC286177 | 1 |
| 0.19 | -0.03 | 0.45 | 0.16 | KCNIP4 | 1 |
| 0.3 | 0.28 | 0.13 | 0.5 | COP1 | 1 |

Entries above whose target name starts with F or f:
| mean z-score | z-score, replicate A | z-score, replicate B | z-score, replicate C | gene knocked down | reagent |
| --- | --- | --- | --- | --- | --- |
| 0.1 | 0.11 | 0.18 | 0.01 | FLG | 1 |
| -0.38 | -0.05 | -0.36 | -0.73 | FLG | 2 |
